This is an account of results in publication PMC9757750.

For the data set, the system named is Nc1nc2c(ncn2[C@@H]2O[C@H](COP(=O)(O)OP(=O)(O)OP(=O)(O)O)[C@@H](O)[C@H]2O)c(=O)[nH]1. In words: purified protein. The conditions noted are these: pH 7.5; 35.0 °C.

As usually defined, the Km is the substrate concentration at which the rate is half of its maximum. As for “LegA15 (Legionella pneumophila subsp. pneumophila str. Philadelphia 1)”, the Km came to 7.13 ± 1.77 µM.
